Pooled drug test results. Numbers come from NIAID ChemDB, via PubChem.

Shared fields: host cell toxicity; cell line: H9; measure: CC50

Lines come from different laboratories, so protocols vary. CCn is the concentration with n% toxicity to the cells.

| compound | value |
|---|---|
| COc1cc([N+](=O)[O-])c(OC)cc1N[C@@H]1c2cc3c(cc2[C@@H](c2cc(OC)c(O)c(OC)c2)[C@H]2C(=O)OC[C@@H]21)OCO3 | 1.76 µg/mL |
| CC1(C)CC[C@]2(C(=O)O)CC[C@]3(C)C(=CCC4[C@@]5(C)CC[C@H](OC(=O)CC6(CC(=O)O)CCCC6)C(C)(C)C5CC[C@]43C)C2C1 | 4.7 µg/mL |
| CC(=O)OC[C@]12[C@H](OC(C)=O)[C@H](OC(C)=O)[C@@H]3[C@@H](OC(C)=O)[C@@]14O[C@@]3(C)COC(=O)c1cccnc1CCC(C)C(=O)O[C@@H]([C@H](OC(=O)c1ccoc1)[C@@H]2OC(C)=O)C4(C)O | >100 µg/mL |
| CC[C@@H](C(=O)[C@@H](C)[C@@H](O)[C@H](C)CCc1ccc(C)c(O)c1C(=O)O)[C@H]1O[C@](CC)([C@H]2CC[C@](O)(CC)[C@H](C)O2)C[C@@H]1C | 48.8 µg/mL |
| O=c1c(O)cc([C@H]2Oc3cc(O)cc(O)c3C[C@H]2O)cc2c([C@H]3Oc4cc(O)cc(O)c4C[C@H]3O)cc(O)c(O)c12 | 48 µg/mL |
| COc1cc2c(cc1OC)[C@@H](Nc1ccc([N+](=O)[O-])cc1)[C@H]1COC(=O)[C@@H]1[C@@H]2c1cc(OC)c(O)c(OC)c1 | 0.158 µg/mL |
| CC1CNC(=O)c2ccccc2SSc2ccccc2C(=O)N1 | 50 µg/mL |
| Cc1nccc2cc(O)c(O)cc12 | 2.22 µg/mL |
| CCC(C)(CC(=O)O)CC(=O)O[C@H]1CC[C@@]2(C)C(CC[C@]3(C)C2CC=C2C4CC(C)(C)CC[C@]4(C(=O)O)CC[C@]23C)C1(C)C | 4.4 µg/mL |
| CCOc1ccc(Cc2nccc3cc(OCC)c(OCC)cc23)cc1OCC | 8.48 µg/mL |
| O=c1[nH]cnc2c1ncn2[C@H]1CC[C@@H](CO)O1 | 1001 µM |
| O=C(O[C@@H]1[C@@H](c2c(O)cc(O)c3c2O[C@H](c2cc(O)c(O)c(O)c2)[C@H](OC(=O)c2cc(O)c(O)c(O)c2)C3)c2c(O)cc(O)cc2O[C@@H]1c1cc(O)c(O)c(O)c1)c1cc(O)c(O)c(O)c1 | 40 µg/mL |
| CC(=O)OC[C@]12[C@H](OC(C)=O)[C@H](OC(C)=O)[C@@H]3[C@@H](OC(C)=O)[C@@]14O[C@@]3(C)COC(=O)c1cccnc1CCC(C)(O)C(=O)O[C@@H]([C@H](OC(=O)c1ccoc1)[C@@H]2OC(C)=O)C4(C)O | >100 µg/mL |
| Nc1ccn([C@H]2CC[C@@H](CO)O2)c(=O)n1 | 55.1 µM |
| Cc1cn([C@H]2C[C@H](N=[N+]=[N-])[C@@H](CO)O2)c(=O)[nH]c1=O | 500 µg/mL |
| CCC1(CC)Oc2ccc3c(C)cc(=O)oc3c2[C@@H](OC(=O)C23CCC(C)(C(=O)O2)C3(C)C)[C@H]1OC(=O)C12CCC(C)(C(=O)O1)C2(C)C | >37.6 µM |
| COc1cc([C@@H]2c3cc(O)c(O)cc3[C@H](O)[C@H]3COC(=O)[C@H]23)cc(OC)c1OC | 9.57 µg/mL |
| CCC1NCCc2cc(O)c(O)cc21 | 20.9 µg/mL |
| Cc1cn([C@H]2C[C@H](N=[N+]=[N-])[C@@H](CO)O2)c(=O)[nH]c1=O | 4 µM |
| Nc1ccn([C@@H]2CS[C@H](CO)O2)c(=O)n1 | >500 µM |
| CC1(C)Oc2ccc3ccc(=O)oc3c2[C@@H](OC(=O)C23CCC(C)(C(=O)O2)C3(C)C)[C@H]1OC(=O)C12CCC(C)(C(=O)O1)C2(C)C | >16.1 µM |
| CC[C@@H](O)[C@]1(C)C[C@H](C)[C@@](O)([C@H]2C[C@H](C)[C@H]([C@]3(C)CC[C@H]([C@@H]4CC[C@@]5(O[C@H]([C@@H](C)[C@@H](OC)[C@H](C)C(=O)O)[C@H](C)[C@@H](OC)[C@H]5C)O4)O3)O2)O1 | 18.62 µg/mL |
| COc1cc([C@@H]2c3cc4c(cc3[C@@H](Nc3ccc(NC(=O)C56CCC(C)(C(=O)O5)C6(C)C)cc3)[C@H]3COC(=O)[C@H]23)OCO4)cc(OC)c1O | 0.018 µg/mL |
| CC1(C)CC[C@]2(C(=O)O)CC[C@]3(C)C(=CCC4[C@@]5(C)CC[C@H](OC(=O)CCC(=O)O)C(C)(C)C5CC[C@]43C)C2C1 | 6.5 µg/mL |
| CC(C)(O)/C=C/C(=O)[C@](C)(O)C1[C@H](O)C[C@@]2(C)[C@@H]3CC=C4[C@@H](C[C@H](O)[C@@H](O)C4(C)C)[C@]3(C)C(=O)C[C@]12C | 0.16 µg/mL |
| Oc1ccc([C@H]2Oc3cc(O)cc(O)c3C[C@H]2O)cc1 | 100 µg/mL |
| CC1(C)CC[C@]2(C(=O)O)CC[C@]3(CO)C(=CCC4[C@@]5(C)CC[C@H](O)C(C)(C)C5CC[C@]43C)C2C1 | 25 µg/mL |
| CO[C@@H]1C[C@@H](C[C@H]2CC[C@H](C)[C@H]([C@@H](C)C(=O)O)O2)O[C@]2(O[C@](C)([C@H]3CC[C@@](C)([C@@H]4O[C@@H]([C@H]5O[C@@](O)(CO)[C@H](C)C[C@@H]5C)C[C@@H]4C)O3)C[C@H]2C)[C@@H]1C | 14.46 µg/mL |
| Nc1nc(N)c2ncn(CCOCP(=O)(O)O)c2n1 | 17 µM |
| COc1cc(N[C@@H]2c3cc4c(cc3[C@@H](c3cc(OC)c(O)c(OC)c3)[C@H]3C(=O)OC[C@@H]32)OCO4)c(C)cc1[N+](=O)[O-] | 38.7 µg/mL |
| O=C(O[C@@H]1Cc2c(O)cc(O)c([C@@H]3c4c(O)cc(O)cc4O[C@H](c4cc(O)c(O)c(O)c4)[C@H]3O)c2O[C@@H]1c1cc(O)c(O)c(O)c1)c1cc(O)c(O)c(O)c1 | 9 µg/mL |
| Cc1cn([C@H]2C[C@H](N=[N+]=[N-])[C@@H](CO)O2)c(=O)[nH]c1=O | 500 µg/mL |
| CC(C)Nc1cccnc1N1CCN(C(=O)c2cc3cc(NS(C)(=O)=O)ccc3[nH]2)CC1 | >100 µM |
| CC(C)(O)/C=C/C(=O)[C@](C)(O)C1[C@H](O)C(=O)[C@@]2(C)[C@@H]3CC=C4[C@@H](C[C@H](O)[C@@H](O)C4(C)C)[C@]3(C)C(=O)C[C@]12C | 5.1 µg/mL |
| COc1ccc(C(C)c2nccc3cc(OC)c(OC)cc23)cc1OC | 11.6 µg/mL |
| Nc1ncnc2c1ncn2CCOCP(=O)(O)O | 51 µM |
| Cc1cn([C@H]2C[C@H](N=[N+]=[N-])[C@@H](CO)O2)c(=O)[nH]c1=O | 1875 µM |
| C[C@@H]1CC[C@]2(C(=O)O)CC[C@]3(C)C(=CCC4[C@]5(C)C(CC[C@]43C)C(C)(C)[C@@H](O)[C@H](O)[C@H]5O)C2[C@]1(C)O | >100 µg/mL |
| O=C(Oc1cc(O)cc2c1C[C@@H](OC(=O)c1cc(O)c(O)c(O)c1)[C@@H](c1cc(O)c(O)c(O)c1)O2)c1cc(O)c(O)c(O)c1 | 20 µg/mL |
| COc1cc([C@@H]2c3cc4c(cc3[C@@H](Nc3ccc([N+](=O)[O-])cc3)[C@H]3COC(=O)[C@H]23)OCO4)cc(OC)c1O | 0.132 µg/mL |
| COC(=O)[C@H]1[C@@H]2C[C@@H](O[C@@H]3O[C@H](C)[C@@H](O)[C@H](N)[C@@H]3O)/C=C/C=C/C=C/C=C/C=C/C=C/C=C/[C@H](C)[C@@H](O)[C@H](C)[C@H](C)OC(=O)C[C@H](O)C[C@H](O)[C@@H](O)CC[C@H](O)C[C@H](O)C[C@](O)(C[C@@H]1O)O2 | 75 µg/mL |
| COc1ccc(Cc2cc3cc(OC)c(OC)cc3c[n+]2C)cc1OC | >100 µg/mL |
| COC1CCC(OC2CC(C3(C)CCC4(CC(O)C(C)C(C(C)/C=C(\C)C(=O)C(C)CC(C)C(=O)O)O4)O3)OC3(OC(C4OC(O)(CO)C(C)CC4C)CC3C)C2C)OC1C | 78.4 µg/mL |

6 of the rows above, restated:

Cc1nccc2cc(O)c(O)cc12 ; value: 2.22 µg/mL
COc1ccc(Cc2cc3cc(OC)c(OC)cc3c[n+]2C)cc1OC ; value: >100 µg/mL
COc1cc([C@@H]2c3cc4c(cc3[C@@H](Nc3ccc([N+](=O)[O-])cc3)[C@H]3COC(=O)[C@H]23)OCO4)cc(OC)c1O ; value: 0.132 µg/mL
Cc1cn([C@H]2C[C@H](N=[N+]=[N-])[C@@H](CO)O2)c(=O)[nH]c1=O ; value: 1875 µM
CCC(C)(CC(=O)O)CC(=O)O[C@H]1CC[C@@]2(C)C(CC[C@]3(C)C2CC=C2C4CC(C)(C)CC[C@]4(C(=O)O)CC[C@]23C)C1(C)C ; value: 4.4 µg/mL
O=C(Oc1cc(O)cc2c1C[C@@H](OC(=O)c1cc(O)c(O)c(O)c1)[C@@H](c1cc(O)c(O)c(O)c1)O2)c1cc(O)c(O)c(O)c1 ; value: 20 µg/mL